Results taken from PMC6778150 (Scientific Reports, 2019).

Assay: peptide made by a vendor
Conditions: whole synthesis, 220 nm, trifluoroacetate salt

## PEPTIDE1{[Abz].R.S.V.I.[Lys(Dnp)]}$$$$V2.0
  final HPLC purity: 98.66%
HPLC, C18, linear gradient
  final HPLC purity: over 98%

Some peptides are written in HELM: one residue between dots, names in brackets for other building blocks, links after the first $.
